Publication PMC11666439 (Frontiers in Immunology, 2024)

Target: SARS-CoV-2 N-terminal region ([…]) (SARS-CoV-2)
Experiment: ELISA
Conditions: both partners purified

B1: recombinant mannose-binding lectin (rMBL) (natural protein)
chain: ETVTCEDAQKTCPAVIACSSPGINGFPGKDGRDGTKGEKGEPGQGLRGLQGPPGKLGPPGNPGPSGSPGPKGQKGDPGKSPDGDSSLAASERKALQTEMARIKKWLTFSLGKQVGNKFFLTNGEIMTFEKVKALCVKFQASVATPRNAAENGAIQNLIKEEAFLGITDEKTEGQFVDLTGNRLTYTNWNEGEPNNAGSDEDCVLLLKNGQWNDVPCSTSHLAVCEFPI
Does B1 bind?
Result: binds
